# Measured values: patent US20250152504A1, “INTRAUTERINE SYSTEMS COMPRISING ANTI-INFECTIVES FOR STEADY-STATE ACCUMULATION TO DISTAL EXTRAUTERINE TISSUE” (priority 2023, published 2025)
# Key:
# [1] = Post-use assay of residual ARVs in removed IUDs (triple study); type: in vivo
# Source text: FIGS. 15A-15C are graphs showing post-use assays of residual anti-retroviral pharmaceutical compositions in removed intrauterine devices, in accordance with the present technology. […]
# [2] = Triple active compound (RAL, MVC, ETR) intrauterine system in vivo study, tissue and secretion concentrations
# Source text: Described herein is a study conducted on an intrauterine system having a plurality of delivery systems (such as shown in FIGS. 1D and 1E). This study included three matrix delivery systems. The first delivery system included raltegravir (RAL), the second delivery system included etravirine (ETR), and the third delivery system included maraviroc (MVC). The intrauterine system was implanted and retained in the uterus of a patient for 28 days.
# Multiple samples were taken before, during, and after insertion of the intrauterine system. Plasma samples were taken an hour before insertion, at insertion, 24 hours after insertion, 48 hours after insertion, 72 hours after insertion, 7 days after insertion, 14 days after insertion, 21 days after insertion, and 28 days after insertion (when the intrauterine system was removed). Vaginal swabs were taken an hour before insertion, at 7 days after insertion, 14 days after insertion, 21 days after insertion, and 28 days after insertion. Vaginal biopsies were taken an hour before insertion, 7 days after insertion, and 28 days after insertion. Endometrial and cervical biopsies were taken an hour before insertion and 28 days after insertion. Histology was also performed an hour before insertion, and consistent visual inspection was done throughout for safety.
# [3] = In vitro drug release from TPU matrix delivery system prototypes; type: physicochemical; settings: for Predicted T50%: from best-fit release model; for release rate: per each ⅓ segment of the device
# Description: Films were cut into disks with a 1-inch diameter die punch; disks were stacked and placed between two pieces of aluminum foil and compressed under a metal weight on a 120° C. dry bath. Thickness was monitored frequently until it measured 3.5 mm with digital calipers calibrated to 0.01 mm. Devices were cut from thick films using a custom rectangular 3.5 mm×13.3 mm die punch.
# All release tests were performed in sink conditions in PBS supplemented with 2% w/v Cremophor® A25/Emulgin® B25. For the first 7-days of drug release testing, 1 mL samples were taken daily; following 7 days, samples were taken every 3-4 days. At all timepoints, bottles were drained and replaced with fresh media following sampling.
# A qualification for selecting an optimal TPU for DPV delivery in this application is the time to achieve 50% cumulative release of drug. This is based on the standard use time of hormonal IUDs, which in practice are removed once about half of the initial load of drug is depleted from the device. Here, this standard was used as a benchmark to evaluate the sustained release properties of candidate delivery system designs. […] The fit of first-order release kinetics to the data was assessed. Equations 1 and 2 describe drug release from a system where dissolution is dependent on a concentration gradient.
# Where k is the first order rate constant, Ct is the concentration of drug in solution at time t and C0 is the initial concentration of drug.
# Where Q is the amount of drug release in time t and kh is the Higuchi release constant.
# Based on the best-fit square-root of time relation, T50% was calculated for each TPU. […] Korsmeyer and Peppas provided a method for understanding drug release mechanisms of swelling and non-swelling polymeric systems, given by Equation 4: […]
# Where Mt/M∝ is the fraction of drug released at time t, K is the rate constant, and n is the release exponent.
substance,measurement,setting,value
maraviroc [MVC],T50%,[1],58 days
same,Average dose,[1]; 28 days,77.75 µg/day
same,Total DPV released,[1]; 28 days,2.18 mg
same,"tissue concentration, Vagina",[2]; 7 days after insertion,103.79 ng/mL
same,"tissue concentration, Cervix",[2]; 28 days after insertion,137.275 ng/mL
same,"tissue concentration, Endometrium",[2]; 28 days after insertion,523.41 ng/mL
same,"tissue concentration, Rectum",[2]; 28 days after insertion,25.72 ng/mL
same,"tissue concentration, Vagina",[2]; 28 days after insertion,108.30 ng/mL
same,Mean concentration in vaginal secretions,[2]; in vivo,12752.31 ng/mL
same,Actual T50%,"[3]; 1 wt % loading, TPU2 matrix",2.5 days
same,First-Order: k,"[3]; 1 wt % loading, TPU2 matrix","0.013, h^−1"
same,Higuchi: kH,"[3]; 1 wt % loading, TPU2 matrix","0.125, %/h^1/2"
same,Predicted T50%,"[3]; 1 wt % loading, TPU2 matrix",1 days
same,Actual T50%,"[3]; 1 wt % loading, TPU3 matrix",7 days
same,First-Order: k,"[3]; 1 wt % loading, TPU3 matrix","0.003, h^−1"
same,Higuchi: kH,"[3]; 1 wt % loading, TPU3 matrix","0.037, %/h^1/2"
same,Korsmeyer-Peppas Constant: n,"[3]; 1 wt % loading, TPU3 matrix","0.890,"
same,Predicted T50%,"[3]; 1 wt % loading, TPU3 matrix",7.5 days
same,First-Order: k,"[3]; 1 wt % loading, TPU4 matrix","0.0005, h^−1"
same,Higuchi: kH,"[3]; 1 wt % loading, TPU4 matrix","0.012, %/h^1/2"
same,Korsmeyer-Peppas Constant: n,"[3]; 1 wt % loading, TPU4 matrix","0.793,"
same,Predicted T50%,"[3]; 1 wt % loading, TPU4 matrix",68 days
same,time to reach 100% release,"[3]; 1 wt %, TPU2 matrix",13 days
same,cumulative release of encapsulated drug,"[3]; 1 wt %, TPU2 matrix, first 24 hours",approximately 50%
same,cumulative release,"[3]; 1 wt %, TPU4 matrix, total by 30 days",33.83%
same,First-Order: k,"[3]; 16.6 wt % loading, TPU4 matrix","0.0002, h^−1"
same,Higuchi: kH,"[3]; 16.6 wt % loading, TPU4 matrix","0.007, %/h^1/2"
same,Korsmeyer-Peppas Constant: n,"[3]; 16.6 wt % loading, TPU4 matrix","0.529,"
same,Predicted T50%,"[3]; 16.6 wt % loading, TPU4 matrix",221 days
same,cumulative release of loaded drug,"[3]; 16.6 wt %, TPU4 matrix, after 30 days",approximately 18%
same,release rate,"[3]; 16.6 wt %, TPU4 matrix, final rate at 30 days",~16 µg/day
same,First-Order: k,"[3]; 30 wt % loading, TPU4 matrix","0.0001, h^−1"
same,Higuchi: kH,"[3]; 30 wt % loading, TPU4 matrix","0.003, %/h^1/2"
same,Predicted T50%,"[3]; 30 wt % loading, TPU4 matrix",737 days
same,cumulative release of encapsulated drug,"[3]; 30 wt %, TPU4 matrix, at 30 days",approximately 7%
same,release rate,"[3]; 30 wt %, TPU4 matrix, at study terminus (30 days)",27.65 µg/day
